Measured values from several laboratories, pooled; numbers as filed in NIAID ChemDB.

Common to all: whole-cell or culture tests; agent: HIV-1; cell line: H9; read-out: inhibition

An empty or dashed field is not shown. Rows are shuffled and stem from different studies. Inhibition is in % at the dose shown (toxicity tests: loss of growth or viability).

smiles | strain or isolate | method | setting | dose | value
O=C1OC(C2OC(=O)c3cc(O)c(O)c(O)c3-c3c(O)c(O)c4oc(=O)c5c(c(O)c(O)c6oc(=O)c3c4c65)-c3c(cc(O)c(O)c3O)C(=O)OCC2O)C2OC(=O)c3c(c(O)c(O)c(O)c3C2O)-c2c1cc(O)c(O)c2O | IIIB | p24 |  | 5 µg/mL | 63%
CC[C@@]1(O)C(=O)OCc2c1cc1n(c2=O)Cc2cc3ccccc3nc2-1 | IIIB | RT activity |  | 0.05 µM | 96%
CCCC(=O)O[C@H]1CN2CC[C@H](O)[C@@H]2[C@@H](O)[C@@H]1O | IIIB |  |  | 20 µM | 99%
O[C@H]1OC[C@H](Cc2ccc3c(c2)OCO3)[C@H]1Cc1ccc2c(c1)OCO2 | IIIB | RT activity |  | 12.7 µM | 97%
C[C@@H](C=O)NC(=O)[C@@H]1CCCN1C(=O)CN | IIIB | syncytia |  | 250 µg/mL | 80%
Nc1nc(=O)n([C@@H]2C[C@H](O)[C@@H](CO)O2)cc1-c1ccncc1 | IIIB | RT activity |  | 10 µg/mL | 35%
NCC(=O)NCC(=O)NCC=O | IIIB | p24 |  | 25 µg/mL | 0%
C[C@H]1[C@H](O)[C@@H](C)/C=C/C=C/C=C/C=C/C=C/C=C/C=C/[C@H](O[C@@H]2O[C@H](C)[C@@H](O)[C@H](N)[C@@H]2O)C[C@@H]2O[C@](O)(C[C@@H](O)C[C@@H](O)CC[C@H](O)[C@@H](O)C[C@@H](O)CC(=O)O[C@H]1C)C[C@H](O)[C@H]2C(=O)O |  | p24 / ELISA |  | 10 µg/mL | 83%
NC(N)=NCCC[C@@H](C=O)NC(=O)CNC(=O)[C@@H]1CCCN1 | IIIB | syncytia |  | 25 µg/mL | 0%
CCCCCCCCCCCCCCCCO[C@H](CCl)COP(=O)(O)OCC[N+](C)(C)C | IIIB | RT activity |  | 3 µM | 86%
Nc1nc(=O)n([C@@H]2C[C@H](O)[C@@H](CO)O2)cc1-c1ccccn1 | IIIB | RT activity |  | 10 µg/mL | 15%
Nc1ccn([C@@H]2O[C@H](CO)C[C@@H]2F)c(=O)n1 | IIIB | antigen |  | 1 µM | 44%
O=C(O)P(=O)(O)O | IIIB | p24 / antigen | 2 d | 300 µM | 100%
NCC(=O)N1CCC[C@H]1C(=O)NCC(=O)N[C@H](C=O)CCCN=C(N)N | IIIB | syncytia |  | 25 µg/mL | 0%
O=C(O)P(=O)(O)O |  | RT activity |  | 50 µg/mL | 86%
COc1cc(C[C@@]2(O)C(=O)OC[C@@H]2Cc2ccc(OC)c(OC)c2)ccc1O | IIIB | syncytia |  | 0.52 µM | 23%
O=C(O)c1cc(SSc2ccc([N+](=O)[O-])c(C(=O)O)c2)ccc1[N+](=O)[O-] | IIIB | p24 |  | 2500 µM | 99.9%
Nc1nc(=O)n([C@H]2C[C@H](O)[C@@H](CO)O2)cc1-c1ccccc1 | IIIB | RT activity |  | 10 µg/mL | 35%
COc1cc(C[C@@](O)(C(N)=O)[C@H](CO)Cc2ccc(OC)c(OC)c2)ccc1O | IIIB | RT activity |  | 1.8 µM | 89%
Nc1nc(=O)n([C@H]2C[C@H](O)[C@@H](CO)O2)cc1-c1ccncc1 | IIIB | RT activity |  | 10 µg/mL | 20%
COc1ccc(C[C@H]2COC(=O)[C@@H]2Cc2ccc(O[C@@H]3O[C@H](CO)[C@@H](O)[C@H](O)[C@H]3O)c(OC)c2)cc1OC | IIIB | p24 |  | 5 µM | 96%